Pooled drug test results. Numbers come from NIAID ChemDB, via PubChem.

Common to all: whole-cell or culture tests; organism: Bovine viral diarrhea virus; cells: MDBK; read-out: EC50

Lines come from different laboratories, so protocols vary.

structure,strain or isolate,method,value
CC(=O)O[C@H]1C[C@H](n2cc(/C(I)=C\I)c(=O)[nH]c2=O)O[C@@H]1CO,NADL,cytopathic effect,>100 µM
C=CCNC(=S)N=Nc1c(O)n(CN2CCCCC2)c2ccc([N+](=O)[O-])cc12,,cytopathic effect,>16 µg/mL
CC(=O)O[C@@H]1C[C@@H](CO)O[C@H]1n1cc(/C(I)=C\I)c(=O)[nH]c1=O,NADL,cytopathic effect,>100 µM
Clc1cccc(-c2nc3ccn(Cc4ccc(Br)cc4)cc-3n2)c1,PE515,cytopathic effect,0.18 µg/mL
O=C1Nc2ccc([N+](=O)[O-])cc2/C1=N/N=C1/SCC(=O)N1c1ccccc1,,cytopathic effect,44 µg/mL
CONc1ncnc2c1ncn2[C@@H]1O[C@H](CO)[C@@H](O)[C@@]1(C)O,NADL,replicon,300 µM
COc1cccc(-c2nc3ccn(Cc4ccc(Br)cc4)cc-3n2)c1,PE515,cytopathic effect,0.052 µg/mL
CCCN(CCC)CCSc1nnc2c(n1)[nH]c1ccccc12,NADL (TYPE 1),cytopathic effect,0.03 µM
O=[N+]([O-])c1ccc2[nH]c(O)c(N=NC(=S)NC3CCCCC3)c2c1,,cytopathic effect,>5 µg/mL
CC(=O)O[C@@H]1C[C@@H](CO)O[C@H]1n1cc(/C(Br)=C\I)c(=O)[nH]c1=O,NADL,cytopathic effect,>100 µM
CCCCCCCCc1ccc(CONCC(=O)C(=O)[C@H]2NC(=O)[C@H]3NC(=O)[C@H](NC(=O)[C@@H]4NC(=O)[C@H](CC(N)=O)NC(=O)[C@H](NC(=O)[C@@H](CC(C)C)NC)C(O)c5ccc(c(Cl)c5)Oc5cc4cc(c5O[C@@H]4O[C@H](CO)[C@@H](O)[C@H](O)[C@H]4O[C@H]4C[C@](C)(N[NH2+][O-])[C@@H](O)[C@H](C)O4)Oc4ccc(cc4)[C@H]3O[C@H]3C[C@](C)(N)[C@@H](O)[C@H](C)O3)c3ccc(O)c(c3)-c3c(O)cc(O)cc32)cc1,,cytopathic effect,5.3 µM
CC(=O)O[C@@H]1[C@H](OC(C)=O)[C@@H](CO)O[C@H]1n1cc(C#CI)c(=O)[nH]c1=O,NADL,cytopathic effect,>100 µM
Fc1cccc(F)c1Cn1ccc2nc(-c3ccccc3)nc-2c1,PE515,cytopathic effect,0.04 µg/mL
CON(C)c1ncnc2c1ncn2[C@@H]1O[C@H](CO)[C@@H](O)[C@@]1(C)O,NADL,replicon,9.5 µM
CN(C)c1cccc(-c2nc3ccn(Cc4ccc(Br)cc4)cc-3n2)c1,PE515,cytopathic effect,0.015 µg/mL
CCCCNC(=S)N=Nc1c(O)n(CN2CCOCC2)c2ccc([N+](=O)[O-])cc12,,cytopathic effect,>19 µg/mL
c1ccc(-c2nc3ccn(Cc4cccc5ccccc45)cc-3n2)cc1,PE515,cytopathic effect,0.455 µg/mL
C[C@@]1(O)[C@H](O)[C@@H](CO)O[C@H]1n1cnc2c(NN)ncnc21,NADL,replicon,60 µM
Cc1cccc(Nc2ncnc3c2ncn3[C@@H]2O[C@H](CO)[C@@H](O)[C@@]2(C)O)c1,NADL,virus yield,>100 µM
c1ccc(CCCCn2ccc3nc(-c4ccccc4)nc-3c2)cc1,PE515,cytopathic effect,0.009 µg/mL
C=CCNC(=S)N=Nc1c(O)[nH]c2ccc([N+](=O)[O-])cc12,,cytopathic effect,>50 µg/mL
CCCN(CCC)CCSc1nnc2c(n1)[nH]c1ccccc12,NADL,plaque count,0.0006 µM
CC(=O)NNc1ncnc2c1ncn2[C@@H]1O[C@H](CO)[C@@H](O)[C@@]1(C)O,NADL,virus yield,>100 µM
C=CCN1C(=O)C(C)S/C1=N/N=C1\C(=O)Nc2ccc([N+](=O)[O-])cc21,,cytopathic effect,>50 µg/mL
c1ccc(CCCn2ccc3nc(-c4ccccc4)nc-3c2)cc1,PE515,cytopathic effect,0.059 µg/mL
Cc1ccc(NC(=S)N=Nc2c(O)[nH]c3ccc([N+](=O)[O-])cc23)cc1,,cytopathic effect,>17 µg/mL
C[C@@]1(O)[C@H](O)[C@@H](CO)O[C@H]1n1cnc2c(N(CCO)CCO)ncnc21,NADL,virus yield,>100 µM
CCCN(CCC)CCSc1nnc2c(n1)[nH]c1ccccc12,F78I,plaque count,0.0004 µM
CONc1ncnc2c1ncn2[C@@H]1O[C@H](CO)[C@@H](O)[C@@]1(C)O,NADL,virus yield,<25 µM
Fc1ccc(Cn2ccc3nc(-c4c(F)cccc4F)nc-3c2)c(F)c1,PE515,cytopathic effect,0.865 µg/mL

Repeating the final 3 entries:

| structure | strain or isolate | method | value |
|---|---|---|---|
| CCCN(CCC)CCSc1nnc2c(n1)[nH]c1ccccc12 | F78I | plaque count | 0.0004 µM |
| CONc1ncnc2c1ncn2[C@@H]1O[C@H](CO)[C@@H](O)[C@@]1(C)O | NADL | virus yield | <25 µM |
| Fc1ccc(Cn2ccc3nc(-c4c(F)cccc4F)nc-3c2)c(F)c1 | PE515 | cytopathic effect | 0.865 µg/mL |

ECn: concentration that inhibits the pathogen or its effect by n%. An empty or dashed field is not shown.